Measured values from patent US9063046B1, “Hand-held device with reagents and method for detection and diagnostics” (priority 2012, dated 2015).
“Also recorded” adds a separate entry of the source.

How the values were obtained:
[1] = tested on: PIXV; design: species or system Pixuna virus
[2] = tested on: VACV; design: species or system Vaccinia virus
[3] = tested on: VACV; design: species or system Vaccinia virus; settings: at inactivating concentration, without post-treatment with EDTA

cupric ascorbate
PCR signal for PIXV at five-fold higher concentration [1]: lost
increase in number of PCR cycles to detect PIXV relative to controls [1]: ~0 cycles
PCR signal for VACV at five-fold higher concentration ([2]; cupric ascorbate five-fold higher than 0.5% in Cu++): lost
increase in number of PCR cycles to detect VACV relative to controls ([2]; relative to controls not exposed to germicidal agent): ~0 cycles
effect on ELISA of VACV [3]: completely inhibits; also recorded: impairs
